Measured values from several laboratories, pooled; numbers as filed in NIAID ChemDB.

Common to all: tests in culture; species: Aspergillus flavus

A number after MIC or MFC names an inhibition level or a share of isolates. Neighbouring rows are from separate reports. Zones are inhibition diameters on agar. Two numbers with a dash give a range or band. An empty or dashed field is not shown.

compound,strain or isolate,method,measure,tested at,result
O=C/C=C/c1ccccc1,NRRL 501,broth dilution,MFC,,160 µg/mL
CC[C@@H]([C@H](C)O)n1ncn(-c2ccc(N3CCN(c4ccc(OC[C@@H]5CO[C@@](Cn6cncn6)(c6ccc(F)cc6F)C5)cc4)CC3)cc2)c1=O,,,MIC90,,0.5 µg/mL
CN(C/C=C/C#CC(C)(C)C)Cc1cccc2ccccc12,,broth dilution / agar,MIC100,,200 µg/mL
CN(C)C1=NC(=O)/C(=C/c2ccc(Cl)cc2)S1,ATCC 9170,broth dilution,MIC100,,>250 µg/mL
C[C@@H]1[C@H](O)[C@@H](C)/C=C/C=C/CC/C=C/C=C/C=C/C=C/C(O[C@H]2O[C@H](C)[C@@H](O)[C@H](N)[C@@H]2O)CC2O[C@](O)(CC(O)C(O)CCC(O)CC(O)CC(O)CC(=O)O[C@H]1C)CC(O)C2C(=O)O,MTCC 277,broth dilution,MIC100,,125 µg/mL
COc1cccc(OC)c1O,,agar,MIC50,,>1000 µg/mL
CC(C)=CCC/C(C)=C/CO,NRRL 501,broth dilution,MFC,,288 µg/mL
COc1cc(C)ccc1O,,agar,MIC100,,505 µg/mL
C[C@H]1[C@H](O)[C@@H](C)/C=C/C=C/C=C/C=C/C=C/C=C/C=C/[C@H](O[C@@H]2O[C@H](C)[C@@H](O)[C@H](N)[C@@H]2O)C[C@@H]2O[C@](O)(C[C@@H](O)C[C@@H](O)CC[C@H](O)[C@@H](O)C[C@@H](O)CC(=O)O[C@H]1C)C[C@H](O)[C@H]2C(=O)O,ITCC 1634,broth dilution,MIC,,0.97 µg/mL
CCCCCOc1ccc(-c2cc(-c3ccc(C(=O)N[C@H]4C[C@@H](O)[C@@H](O)NC(=O)[C@@H]5[C@@H](O)[C@@H](C)CN5C(=O)[C@H]([C@H](O)CC(N)=O)NC(=O)[C@H]([C@H](O)[C@@H](O)c5ccc(O)c(OS(=O)(=O)O)c5)NC(=O)[C@@H]5C[C@@H](O)CN5C(=O)[C@H]([C@@H](C)O)NC4=O)cc3)no2)cc1,,,MIC90,,0.03 µg/mL
CC(O)CCCNc1ccc2ncccc2c1,,turbidity,MIC50,,62.5 µg/mL
Cc1ccc2nc(Cl)c(CNc3ccc(F)c(Cl)c3)cc2c1,MTCC 277,agar diffusion,zone,200 µg/mL,15.83 mm
COc1cc(/C=C2\SC(N(C)C)=NC2=O)cc(OC)c1OC,ATCC 9170,broth dilution,MIC100,,>250 µg/mL
O=C(N/N=C\n1ccnc1)c1ccccc1,,broth dilution,MIC50,,>1167 µM
CCCCc1nc(Cl)c(-c2cc(-c3cccc(Br)n3)nc3c2C(=O)c2ccccc2-3)n1Cc1ccccc1,MTCC 8188,agar diffusion,zone,10 µg/disc,9 mm
[Al]#[P],,agar,MFC,,>5 µg/mL
COc1ccc(/C=C2\SC(N(C)C)=NC2=O)cc1,ATCC 9170,broth dilution,MIC100,,>250 µg/mL
CN(C/C=C/C#CC(C)(C)C)Cc1cccc2ccccc12,MTCC 277,agar diffusion,zone,200 µg/mL,24.78 mm
OC(Cn1cncn1)(Cn1cncn1)c1ccc(F)cc1F,CCAM 080001,broth dilution,MIC100,,2.5 µg/mL
Cc1ccc2nc(Cl)c(CNc3ccc(F)cc3)cc2c1,MTCC 277,agar diffusion,zone,200 µg/mL,10.93 mm
NC(=S)N/N=C/c1ccc(-n2ccnc2)cc1,,broth dilution,MIC50,,>1020 µM
COc1ccc(OC)c(C=O)c1,NRRL3357,agar,MIC,,1500 µM
C[C@H]1[C@H](O)[C@@H](C)/C=C/C=C/C=C/C=C/C=C/C=C/C=C/[C@H](O[C@@H]2O[C@H](C)[C@@H](O)[C@H](N)[C@@H]2O)C[C@@H]2O[C@](O)(C[C@@H](O)C[C@@H](O)CC[C@H](O)[C@@H](O)C[C@@H](O)CC(=O)O[C@H]1C)C[C@H](O)[C@H]2C(=O)O,,,MIC90,,1–4 µg/mL
CCc1ccc(O)c(OC)c1,,agar,MIC50,,227 µg/mL
Cc1ccc2nc(Cl)c(CNc3ccccc3)cc2c1,MTCC 277,agar diffusion,zone,200 µg/mL,10.9 mm
FC(F)(F)c1cccc([Se][Se]c2cccc(C(F)(F)F)c2)c1,,broth dilution,MFC,,>64 µg/mL
COc1ccc(O)c(C=O)c1,NRRL3357,agar,MIC,,500 µM
Oc1cccc2oc(-c3ccccc3)cc(=Nc3ccccc3N=c3cc(-c4ccccc4)oc4cccc(O)c34)c12,,agar diffusion,MIC,,72 µg/mL
COC1=CC(=O)C[C@@H](C)[C@]12Oc1c(Cl)c(OC)cc(OC)c1C2=O,,agar diffusion,zone,125 µg/disc,31 mm
CC(=O)N/N=C/c1cnc[nH]1,,broth dilution,MIC50,,1643 µM
C/C=C/c1ccc(O)c(OC)c1,,agar,MIC100,,301 µg/mL
OCCCCNc1ccc2ncccc2c1,,turbidity,MIC50,,2 µg/mL
COc1ccccc1O,,agar,MIC100,,>1000 µg/mL
CCNC1=CC(=O)c2ccccc2C1=O,MTCC 277,broth dilution,MIC100,,500 µg/mL
CCc1ccccc1O,,agar,MIC100,,207 µg/mL
CC(C)(O)CCCNc1cccc2cccnc12,,turbidity,MIC50,,15.6 µg/mL
COc1cccc(C=O)c1O,NRRL3357,agar,MIC,,1000 µM
CCC(C)CC(C)CCCCCCCCC(=O)N[C@H]1C[C@@H](O)[C@H](NCCN)NC(=O)[C@@H]2[C@@H](O)CCN2C(=O)[C@H]([C@H](O)CCN)NC(=O)[C@H]([C@H](O)[C@@H](O)c2ccc(O)cc2)NC(=O)[C@@H]2C[C@@H](O)CN2C(=O)[C@H]([C@@H](C)O)NC1=O,,,MIC90,,0.03–0.25 µg/mL

A second listing of 5 rows from above:

| compound | strain or isolate | method | measure | tested at | result |
|---|---|---|---|---|---|
| CCNC1=CC(=O)c2ccccc2C1=O | MTCC 277 | broth dilution | MIC100 |  | 500 µg/mL |
| OCCCCNc1ccc2ncccc2c1 |  | turbidity | MIC50 |  | 2 µg/mL |
| Cc1ccc2nc(Cl)c(CNc3ccccc3)cc2c1 | MTCC 277 | agar diffusion | zone | 200 µg/mL | 10.9 mm |
| C[C@@H]1[C@H](O)[C@@H](C)/C=C/C=C/CC/C=C/C=C/C=C/C=C/C(O[C@H]2O[C@H](C)[C@@H](O)[C@H](N)[C@@H]2O)CC2O[C@](O)(CC(O)C(O)CCC(O)CC(O)CC(O)CC(=O)O[C@H]1C)CC(O)C2C(=O)O | MTCC 277 | broth dilution | MIC100 |  | 125 µg/mL |
| CC(C)(O)CCCNc1cccc2cccnc12 |  | turbidity | MIC50 |  | 15.6 µg/mL |